Laboratory results taken from patent US10456414B2, “Methods for treating HCV” (priority 2011, dated 2019).

Columns and labels:
[1] = system: GT4a NS5B S282T mutant chimeric replicon; format: cell-based, HCV
[2] = system: GT3a NS5B S282T mutant chimeric replicon; format: cell-based, HCV
[3] = system: Genotype 1a replicon, NS5A Y93H
[4] = system: Genotype 1a replicon, NS5A Q30H
[5] = system: Genotype 1a replicon, NS5A Q30E
[6] = system: Genotype 1a replicon, NS5A M28T
[7] = system: Genotype 1a replicon, NS5A L31M
[8] = system: GT2b NS5B S282T mutant chimeric replicon; format: cell-based, HCV
[9] = system: GT1b NS5B S282T mutant replicon; format: cell-based, HCV
[10] = system: GT2a NS5B S282T mutant replicon; format: cell-based, HCV
[11] = system: Genotype 1a replicon, NS5A Q30R
[12] = system: panel of NS5A mutant replicons; assay: Transient replicon assay, panel of NS5A mutant replicons; format: cell-based, HCV; conditions: seven NS5A mutants, genotype 1a
Source text: NS5A mutant replicons were created by synthesizing a sequence encoding the first 149 amino acids of NS5A containing the desired mutation flanked by a 5′ and 3′ BsrGI and EcoRI site, respectively (Genscript, Piscataway, N.J.). Synthesized fragments were then cloned by standard molecular biology techniques into a 1a Rluc replicon plasmid modified to enable cloning into unique BsrGI and EcoRI restriction sites. Mutations were confirmed by DNA sequencing.
RNA was transfected into Huh-lunet cells using the method of Lohmann et al. (Lohmann et al., Science 1999; 285 (5424):110-3) Briefly, cells were trypsinized and washed twice with PBS. A suspension of 4×10^6 cells in 400 μL of PBS were mixed with 5 μg of RNA and subjected to electroporation using settings of 960 μF and 270 V. Cells were transferred into 40 mL of pre-warmed culture medium and then seeded into 96-well or 384-well plates. Compounds were 3-fold serially diluted in 100% DMSO and added to cells to achieve a final DMSO concentration of 0.5%. Cells were treated for three days after which culture media were removed, cells were lysed, and Renilla luciferase activity was quantified using commercially available reagents (Promega) and a Victor or Envision instrument (Perkin Elmer, Waltham, Mass.).
Resistance fold changes were calculated as the ratio of mutant to wild-type replicon EC50. […]

NC(=O)c1ncn([C@@H]2O[C@H](CO)[C@@H](O)[C@H]2O)n1 [Ribavirin, 1-β-D-ribofuranosyl-1H-1,2,4-Triazole-3-carboxamide, reference compound]
Fold change [1]: 0.1 | Fold change [2]: 0.2 | Fold Shift in EC50 (DRM EC50/1a-H77 EC50) [3]: 1.0 | Fold Shift in EC50 (DRM EC50/1a-H77 EC50) [4]: 0.7 | Fold Shift in EC50 (DRM EC50/1a-H77 EC50) [5]: 0.8 | Fold Shift in EC50 (DRM EC50/1a-H77 EC50) [6]: 0.4 | Fold Shift in EC50 (DRM EC50/1a-H77 EC50) [7]: 0.5 | Fold change [8]: 0.2 | Fold change [9]: 0.2 | Fold change [10]: 0.1 | Fold Shift in EC50 (DRM EC50/1a-H77 EC50) [11]: 0.8 | increase (shift) in EC50 for NS5A mutants [12]: no significant shift
